Assay results from PMC5404532, “Simplified Reversed Chloroquines To Overcome Malaria Resistance to Quinoline-Based Drugs” (Antimicrobial Agents and Chemotherapy, 2017).

Each compound was assayed on mouse spleen lymphocytes (assay: Cytotoxicity against mouse spleen lymphocytes). Conditions: unitless; cytotoxicity/efficacy against D6.
Assay type: cell-based

Structure (SMILES) | T.I. (therapeutic index)
CN(CCCNc1ccnc2cc(Cl)ccc12)CCCN1c2ccccc2CCc2ccccc21 [Compound 1] | 240
O=C(CNCCNc1ccnc2cc(Cl)ccc12)N(Cc1ccccc1)Cc1ccccc1 [Compound 2] | 4,400
Clc1ccc2c(NCCCN3CCN(C(c4ccccc4)c4ccccc4)CC3)ccnc2c1 [Compound 3] | 580
Clc1ccc2c(NCCCN3CCN(c4ccccc4-c4ccccc4)CC3)ccnc2c1 [Compound 6, N-(3-(4-(Biphenyl-2-yl)piperazin-1-yl)propyl)-7-chloroquinolin-4-amine] | 1,400
Clc1ccc2c(NCCCN3CCN(c4cccc(-c5ccccc5)c4)CC3)ccnc2c1 [Compound 7, N-(3-(4-(Biphenyl-3-yl)piperazin-1-yl)propyl)-7-chloroquinolin-4-amine] | 2,300
Clc1ccc2c(NCCCN3CCN(c4ccc(-c5ccccc5)cc4)CC3)ccnc2c1 [Compound 8, N-(3-(4-(Biphenyl-4-yl)piperazin-1-yl)propyl)-7-chloroquinolin-4-amine] | 3,700
Clc1ccc2c(NCCCN3CCN(c4ncccn4)CC3)ccnc2c1 [Compound 23, 7-Chloro-N-(3-(4-(pyrimidin-2-yl)piperazin-1-yl)propyl)quinolin-4-amine] | 20,000
